Measured values from several laboratories, pooled; numbers as filed in NIAID ChemDB.

Shared fields: growth or infection tests; species: Mycobacterium avium complex

Two numbers with a dash give a range or band.

compound	read-out	strain	result
NNC(=O)c1ccncc1	MIC	1056	4 µg/mL
CCn1cc(C(=O)O)c(=O)c2cc(F)c(N3CCNCC3)cc21	MIC50	16 isolates	50 µg/mL
NC[C@@H]1O[C@H](O[C@H]2[C@@H](O)[C@H](O[C@@H]3[C@@H](O)[C@H](N)C[C@H](N)[C@H]3O[C@H]3O[C@H](CN)[C@@H](O)[C@H](O)[C@H]3N)O[C@@H]2CO)[C@H](N)[C@@H](O)[C@@H]1O	MIC	32 isolates	8 µg/mL
CO[C@H]1/C=C/O[C@@]2(C)Oc3c(C)c(O)c4c(=O)c(c5oc6cc(N7CCN(CC(C)C)CC7)cc(=O)c6nc5c4c3=C2O)NC(=O)/C(C)=C\C=C\[C@H](C)[C@H](O)[C@@H](C)[C@@H](O)[C@@H](C)[C@H](OC(C)=O)[C@@H]1C	MIC90	20 strains	0.07–0.15 µg/mL
CCC(C)N1CCN(c2cc(=O)c3nc4c(oc3c2)c2c(=O)c3c(O)c(C)c5c(c34)=C(O)[C@@](C)(O/C=C/[C@H](OC)[C@@H](C)[C@@H](OC(C)=O)[C@H](C)[C@H](O)[C@H](C)[C@@H](O)[C@@H](C)/C=C/C=C(/C)C(=O)N2)O5)CC1	MIC90	18 strains	6.25 µg/mL
CO[C@H]1/C=C/O[C@@]2(C)Oc3c(C)c(O)c4c(O)c(c(/C=N/N5CCN(C/C=C/c6ccccc6)CC5)c(O)c4c3C2=O)NC(=O)/C(C)=C\C=C\[C@H](C)[C@H](O)[C@@H](C)[C@@H](O)[C@@H](C)[C@H](OC(C)=O)[C@@H]1C	MIC	SK46	0.06 µg/mL
CCn1cc(C(=O)O)c(=O)c2cc(F)c(N3CCNCC3)cc21	MIC90	63 isolates	>16 µg/mL
CCCN1CCN(c2cc(=O)c3nc4c(oc3c2)c2c(=O)c3c(O)c(C)c5c(c34)=C(O)[C@@](C)(O/C=C/[C@H](OC)[C@@H](C)[C@@H](OC(C)=O)[C@H](C)[C@H](O)[C@H](C)[C@@H](O)[C@@H](C)/C=C/C=C(/C)C(=O)N2)O5)CC1	MIC90	18 strains	6.25 µg/mL
CO[C@H]1/C=C/O[C@@]2(C)Oc3c(C)c(O)c4c(=O)c(c5oc6cc(N7CCN(C(C)C)CC7)cc(=O)c6nc5c4c3=C2O)NC(=O)/C(C)=C\C=C\[C@H](C)[C@H](O)[C@@H](C)[C@@H](O)[C@@H](C)[C@H](OC(C)=O)[C@@H]1C	MIC90	20 strains	0.07–0.3 µg/mL
CC(C)N=c1cc2n(-c3ccc(Cl)cc3)c3ccccc3nc-2cc1Nc1ccc(Cl)cc1	MIC	ATCC35713	1.5 µg/mL
NCCC(O)C(N)CC(=O)NC1CNC(=O)C(C2CCN=C(N)N2)NC(=O)/C(=C/NC(N)=O)NC(=O)C(CO)NC(=O)C(CO)NC1=O	MIC	Isolate 49	25 µg/mL
COc1cc2c(c3oc(=O)c4c(c13)CCC4=O)C1C=COC1O2	MIC90	32 isolates	128 µg/mL
CC(C)N=c1cc2n(-c3ccc(Cl)cc3)c3ccccc3nc-2cc1Nc1ccc(Cl)cc1	MIC	711/HIV-	0.25 µg/mL
CC[C@H]1OC(=O)[C@H](C)[C@@H](O[C@H]2C[C@@](C)(OC)[C@@H](O)[C@H](C)O2)[C@H](C)[C@@H](O[C@@H]2O[C@H](C)C[C@H](N(C)C)[C@H]2O)[C@](C)(OC)C[C@@H](C)C(=O)[C@H](C)[C@@H](O)[C@]1(C)O	MIC50	20 strains	2 µg/mL
CO[C@H]1/C=C/O[C@@]2(C)Oc3c(C)c(O)c4c(O)c(c5c(c4c3C2=O)NC2(CCN(CC(C)C)CC2)N=5)=NC(=O)/C(C)=C\C=C\[C@H](C)[C@H](O)[C@@H](C)[C@@H](O)[C@@H](C)[C@H](OC(C)=O)[C@@H]1C	MIC50	230 isolates	0.14 µg/mL
CO[C@H]1/C=C/O[C@@]2(C)Oc3c(C)c(O)c4c(O)c(c(/C=N/N5CCN(C)CC5)c(O)c4c3C2=O)NC(=O)/C(C)=C\C=C\[C@H](C)[C@H](O)[C@@H](C)[C@@H](O)[C@@H](C)[C@H](OC(C)=O)[C@@H]1C	MIC	32 isolates	1 µg/mL
NC[C@H]1O[C@H](O[C@H]2[C@H](O)[C@@H](O[C@H]3O[C@H](CO)[C@@H](O)[C@H](N)[C@H]3O)[C@H](N)C[C@@H]2N)[C@H](O)[C@@H](O)[C@@H]1O	MIC	N-976 (HIV+)	2 µg/mL
CC1COc2c(C3(N)CC3)c(F)cc3c(=O)c(C(=O)O)cn1c23	MIC90	16 isolates	>100 µg/mL
CO[C@H]1/C=C/O[C@@]2(C)Oc3c(C)c(O)c4c(O)c(c5c(c4c3C2=O)NC2(CCN(CC(C)C)CC2)N=5)=NC(=O)/C(C)=C\C=C\[C@H](C)[C@H](O)[C@@H](C)[C@@H](O)[C@@H](C)[C@H](OC(C)=O)[C@@H]1C	MIC50	20 strains	0.4 µg/mL
C[C@@H]1CN(c2c(F)c(N)c3c(=O)c(C(=O)O)cn(C4CC4)c3c2F)C[C@H](C)N1	MIC90	16 isolates	6.25 µg/mL
CCCN1CCN(c2cc(=O)c3nc4c(oc3c2)c2c(=O)c3c(O)c(C)c5c(c34)=C(O)[C@@](C)(O/C=C/[C@H](OC)[C@@H](C)[C@@H](OC(C)=O)[C@H](C)[C@H](O)[C@H](C)[C@@H](O)[C@@H](C)/C=C/C=C(/C)C(=O)N2)O5)CC1	MIC	31F093T	0.07 µg/mL
CC[C@@H](CO)NCCN[C@@H](CC)CO	MIC	32 isolates	8 µg/mL
NC[C@H]1O[C@H](O[C@H]2[C@H](O[C@@H]3O[C@H](CO)[C@@H](O)[C@H]3O)[C@@H](O)[C@H](N)C[C@@H]2N)[C@H](N)[C@@H](O)[C@@H]1O	MIC	Isolate 49	12.5 µg/mL
CN[C@@H]1[C@H](O[C@H]2[C@H](O[C@H]3[C@H](O)[C@@H](O)[C@H](N=C(N)N)[C@@H](O)[C@@H]3N=C(N)N)O[C@@H](C)[C@]2(O)CO)O[C@@H](CO)[C@H](O)[C@H]1O	MIC	32 isolates	5 µg/mL
NCC[C@H](O)C(=O)N[C@@H]1C[C@H](N)[C@@H](O[C@H]2O[C@H](CN)[C@@H](O)[C@H](O)[C@H]2O)[C@H](O)[C@H]1O[C@H]1O[C@H](CO)[C@@H](O)[C@H](N)[C@H]1O	MIC	1129	10 µg/mL
CC[C@H]1OC(=O)[C@H](C)[C@@H](O[C@H]2C[C@@](C)(OC)[C@@H](O)[C@H](C)O2)[C@H](C)[C@@H](O[C@@H]2O[C@H](C)C[C@H](N(C)C)[C@H]2O)[C@](C)(OC)C[C@@H](C)C(=O)[C@H](C)[C@@H](O)[C@]1(C)O	MIC50	37 strains	0.5 µg/mL
NC[C@H]1O[C@H](O[C@H]2[C@H](O)[C@@H](O[C@H]3O[C@H](CO)[C@@H](O)[C@H](N)[C@H]3O)[C@H](N)C[C@@H]2N)[C@H](O)[C@@H](O)[C@@H]1O	MIC	Isolate C-40	≤12.5 µg/mL
CCS(=O)(=O)c1ccc(/C=N\NC(N)=S)cc1	MIC	32 isolates	5 µg/mL
CC1COc2c(N3CCN(C)CC3)c(F)cc3c(=O)c(C(=O)O)cn1c23	MIC50	16 isolates	12.5 µg/mL
C[C@@H]1CN(c2c(F)c(N)c3c(=O)c(C(=O)O)cn(C4CC4)c3c2F)C[C@H](C)N1	MIC	32 isolates	4 µg/mL
C[C@@H]1CN(c2c(F)c(N)c3c(=O)c(C(=O)O)cn(C4CC4)c3c2F)C[C@H](C)N1	MIC50	37 strains	2 µg/mL
CO[C@H]1/C=C/O[C@@]2(C)Oc3c(C)c(O)c4c(O)c(c(/C=N/N5CCN(C)CC5)c(O)c4c3C2=O)NC(=O)/C(C)=C\C=C\[C@H](C)[C@H](O)[C@@H](C)[C@@H](O)[C@@H](C)[C@H](OC(C)=O)[C@@H]1C	MIC	CIPT 140310003 (smooth)	0.5 µg/mL
CN[C@@H]1[C@H](O[C@H]2[C@H](O[C@H]3[C@H](O)[C@@H](O)[C@H](N=C(N)N)[C@@H](O)[C@@H]3N=C(N)N)O[C@@H](C)[C@]2(O)C=O)O[C@@H](CO)[C@H](O)[C@H]1O	MIC	TMC 1403	0.39 µg/mL
NC(=O)c1ncn([C@@H]2O[C@H](CO)[C@@H](O)[C@H]2O)n1	MIC50	32 isolates	>128 µg/mL
Cc1c(F)c(N2CCNC(C)C2)cc2c1c(=O)c(C(=O)O)cn2C1CC1	MIC50	16 isolates	6.25 µg/mL
CO[C@H]1/C=C/O[C@@]2(C)Oc3c(C)c(O)c4c(O)c(c5c(c4c3C2=O)NC2(CCN(CC(C)C)CC2)N=5)=NC(=O)/C(C)=C\C=C\[C@H](C)[C@H](O)[C@@H](C)[C@@H](O)[C@@H](C)[C@H](OC(C)=O)[C@@H]1C	MIC50	37 strains	0.25 µg/mL
NC(=O)c1cnccn1	MIC90	20 strains	>1600 µg/mL
NCC[C@H](O)C(=O)N[C@@H]1C[C@H](N)[C@@H](O[C@H]2O[C@H](CN)[C@@H](O)[C@H](O)[C@H]2O)[C@H](O)[C@H]1O[C@H]1O[C@H](CO)[C@@H](O)[C@H](N)[C@H]1O	MIC	Isolate 64	12.5 µg/mL
NNC(=O)c1ccncc1	MIC50	20 strains	1.6 µg/mL
NC[C@H]1O[C@H](O[C@H]2[C@H](O)[C@@H](O[C@H]3O[C@H](CO)[C@@H](O)[C@H](N)[C@H]3O)[C@H](N)C[C@@H]2N)[C@H](O)[C@@H](O)[C@@H]1O	MIC	TMC 1467	<0.01 µg/mL
COc1c(N2CCNC(C)C2)c(F)cc2c(=O)c(C(=O)O)cn(C3CC3)c12	MIC90	16 isolates	6.25 µg/mL

Repeating the first 3 entries:

compound,read-out,strain,result
NNC(=O)c1ccncc1,MIC,1056,4 µg/mL
CCn1cc(C(=O)O)c(=O)c2cc(F)c(N3CCNCC3)cc21,MIC50,16 isolates,50 µg/mL
NC[C@@H]1O[C@H](O[C@H]2[C@@H](O)[C@H](O[C@@H]3[C@@H](O)[C@H](N)C[C@H](N)[C@H]3O[C@H]3O[C@H](CN)[C@@H](O)[C@H](O)[C@H]3N)O[C@@H]2CO)[C@H](N)[C@@H](O)[C@@H]1O,MIC,32 isolates,8 µg/mL

MIC50, MIC90 and the like: level of inhibition, or share of isolates inhibited. Lines come from different laboratories, so protocols vary.